Anti-infective test results gathered from many reports (values: NIAID ChemDB through PubChem).

All rows: tests in culture; agent: HIV-1; cell line: H9; endpoint: inhibition

An empty or dashed field is not shown. Neighbouring rows are from separate reports. Percent inhibition refers to the dose given; in toxicity tests it is the harm to the cells.

structure	strain	read by	conditions	tested at	result
O=C(O)P(=O)(O)O	IIIB	p24 / antigen	6 d	150 µM	80%
C[C@@H](C=O)NC(=O)[C@@H]1CCCN1C(=O)CN	IIIB	p24		25 µg/mL	0%
CC[C@@]1(O)C(=O)OCc2c1cc1n(c2=O)Cc2cc3ccccc3nc2-1	IIIB	RT activity		0.01 µM	89%
NCC(=O)N1CCC[C@H]1C=O	IIIB	p24		25 µg/mL	62.1%
COc1cc(C[C@@](O)(C(N)=O)[C@H](CO)Cc2ccc(OC)c(OC)c2)ccc1O	IIIB	p24		1.8 µM	84%
O=CCNC(=O)[C@@H]1CCCN1	IIIB	p24		25 µg/mL	62.1%
Nc1nc(=O)n([C@@H]2C[C@H](O)[C@@H](CO)O2)cc1-c1nccs1	IIIB	RT activity		10 µg/mL	13%
CCCC(=O)O[C@H]1CN2CC[C@H](O)[C@@H]2[C@@H](O)[C@@H]1O	U455			4 µM	90%
c1cc2c(cc1[C@H]1OC[C@H]3[C@@H]1CO[C@@H]3c1ccc3c(c1)OCO3)OCO2	IIIB	RT activity		8.2 µM	81%
NC(N)=NCCC[C@H](NC(=O)[C@@H](N)Cc1ccc(O)cc1)C(=O)NCC(=O)N1CCC[C@H]1C(=O)NCC=O	IIIB	syncytia		250 µg/mL	100%
Nc1nc(=O)n([C@H]2C[C@H](O)[C@@H](CO)O2)cc1-c1ccco1	IIIB	RT activity		10 µg/mL	25%
CCCCCCCCCCCCCCCCOC[C@H](CCl)OP(=O)(O)OCC[N+](C)(C)C	IIIB	RT activity		1 µM	76%
Nc1nc(=O)n([C@H]2C[C@H](O)[C@@H](CO)O2)cc1-c1cccs1	IIIB	RT activity		10 µg/mL	<10%
COc1cc([C@H]2OC[C@H]3[C@@H]2CO[C@@H]3c2ccc3c(c2)OCO3)cc(OC)c1OC	IIIB	RT activity		10.6 µM	71%
Nc1nc(=O)n([C@H]2C[C@H](O)[C@@H](CO)O2)cc1-c1nccs1	IIIB	RT activity		10 µg/mL	10%
COc1cc(C[C@H]2C(=O)OC[C@@H]2Cc2ccc(OC)c(OC)c2)ccc1O	IIIB	p24		0.13 µM	95%
Cc1ccc(C(=O)OC[C@H]2O[C@H](n3cc(-c4sccc4C)c(=O)[nH]c3=O)C[C@@H]2OC(=O)c2ccc(C)cc2)cc1	IIIB	RT activity		1 µg/mL	60%
NC(N)=NCCC[C@H](N)C(=O)NCC(=O)N1CCC[C@H]1C(=O)NCC=O	IIIB	syncytia		25 µg/mL	50%